# Article PMC10783070
# Tags and fusion partners may be left off the protein sequences shown.
# Molecular target: T1, HilD (UniProt E1WAC0)
# T1 sequence (looked up): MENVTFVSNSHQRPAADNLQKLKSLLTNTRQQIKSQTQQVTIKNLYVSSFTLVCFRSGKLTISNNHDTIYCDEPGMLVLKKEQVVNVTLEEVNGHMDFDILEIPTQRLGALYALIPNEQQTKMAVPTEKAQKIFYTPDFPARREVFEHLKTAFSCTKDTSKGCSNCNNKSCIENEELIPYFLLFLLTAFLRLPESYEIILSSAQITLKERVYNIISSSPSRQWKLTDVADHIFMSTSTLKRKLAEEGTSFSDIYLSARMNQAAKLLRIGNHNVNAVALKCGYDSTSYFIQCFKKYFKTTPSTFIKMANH
# Test: EMSA
# Conditions: no fisetin, 2.5 ug HilD, 50 ng DNA in 20 uL; 20 mM HEPES pH 7.2, 20 mM KCl, 1 mM DTT, 0.04 mM EDTA, 0.01% Triton X-100, 1% glycerol, RT, 30 min ([…]; recombinant protein; residues 1-309; protein details: His6 (pET28a); label: none (SYBR Safe stain)
sequence,measurement,value
TGCAATGAGGCCAAGTTAAATATGTAAATATTTAGATGCCCGGCGCTGACTCTCTCTGCACCAGGATATACGGCAGCGTCCATTCGATAATCACAGTTAGTTATAACAATATTATTACCAACATGTCAGTTATTTAAAGCACAGGCATAAGCTAAATAATCAAATGTTAAAAACATATAAACCCGAGCCCGTAGAATATGACATTAAGCTCATAATAAAAGCTCAACCTGACCGTTAGTACTAACAGCAGAATTACTGAAACAGTAGATTCTATCCTAACGACTTGTATTAGTTATTATAACTTTTCACCCTGTAAGAGAATACACTATTATCATGCCACATT (double strand) [hilA promoter],binding result,binds
